Results published in US7015244B1 (priority 1998, dated 2006).

Assays:
[1] = system: human epidermoid cells, virally infected with HSV-2; details: for Trichothecene in Vitro Concentration, Toxic Lo / Trichothecene in Vitro Concentration, Cytotoxic Max: dose guideline; for Trichothecene in Vitro Concentration, Cytotoxic Min: dose guideline from viral protein synthesis inhibiting model; for Trichothecene in Vitro Concentration, Cytotoxic Max: highest concentration without reduction in cell viability
[2] = system: human epidermoid cells, virally infected with HSV-2; details: cited from earlier work; for inhibition of hyperactive protein synthesis: by ~5 ng/ml, HSV-2 infected human epidermoid cells

Substance | Trichothecene in Vitro Concentration, Toxic Lo [1] [ng/mL] | Trichothecene in Vitro Concentration, Cytotoxic Min [1] [ng/mL] | Trichothecene in Vitro Concentration, Cytotoxic Max [1] [ng/mL] | inhibition of hyperactive protein synthesis [2] [%] | Trichothecene in Vitro Concentration, Inhibitory 50% [2] [ng/mL] | Trichothecene in Vitro Concentration, Inhibitory 80% [2] [ng/mL] | Trichothecene in Vitro Concentration, Inhibitory 90% [2] [ng/mL] | Trichothecene in Vitro Concentration, Inhibitory 99% [2] [ng/mL]
Roridin A | 11 | 6 | 10 | 100 | 1.4 | 2.0 | 3.3 | 5.0
Satratoxin G | 11 | 6 | 10 | 100 | 1.5 | 2.4 | 3.9 | 5.0
